Publication PMC8724787, “The epitope arrangement on flavivirus particles contributes to Mab C10’s extraordinary neutralization breadth across Zika and dengue viruses” (Cell, 2021)

Key:
Test in all cases: cell-based or functional assay
[1] = target: DENV1 strain Hawaii envelope (E) protein on virions (Dengue virus 1, strain Hawaii, UniProt A0A097PIH4, strain)
[2] = target: DENV2 strain 16681 envelope (E) protein on virions (Dengue virus 2, strain 16681, UniProt A0A173DS53, strain)
[3] = target: DENV4 strain 1-0093 envelope (E) protein on virions (Dengue virus 4, strain 1-0093 …, UniProt Q80L01, strain)
[4] = target: ZIKV strain PF13 envelope (E) protein on virions (Zika virus, strain PF13, strain)
[5] = target: DENV3 strain H87 envelope (E) protein on virions (Dengue virus 3, strain H87, UniProt A0A0U2UQM7, strain)

Binder | neutralization of virus, FRNT on Vero cells: IC50 of bivalent C10 [1] | neutralization of virus, FRNT on Vero cells: IC50 of bivalent C10 [2] | neutralization of virus, FRNT on Vero cells: IC50 of bivalent C10 [3] | neutralization of virus, FRNT on Vero cells: IC50 of bivalent C10 [4] | neutralization of virus, FRNT on Vero cells: IC50 of bivalent C10 [5]
C10 intact bivalent IgG1 (human monoclonal antibody EDE1 C10) (antibody, V domains shown) VH: EVQLVESGAEVKKPGASVKVSCKASGYTFTSYAMHWVRQAPGQRLEWMGWINAGNGNTKYSQKFQDRVTITRDTSASTAYMELSSLRSEDTAIYYCARDKVDDYGDYWFPTLWYFDYWGQGTLVTVSS VL: QSALTQPASVSGSPGQSITISCTGTSSDVGGFNYVSWFQQHPGKAPKLMLYDVTSRPSGVSSRFSGSKSGNTASLTISGLQAEDEADYYCSSHTSRGTWVFGGGTKLTVL | 1 nM | < 0.5 nM | < 0.5 nM | < 0.5 nM | 5 nM
C10 bivalent F(ab')2 (other, human) VH: EVQLVESGAEVKKPGASVKVSCKASGYTFTSYAMHWVRQAPGQRLEWMGWINAGNGNTKYSQKFQDRVTITRDTSASTAYMELSSLRSEDTAIYYCARDKVDDYGDYWFPTLWYFDYWGQGTLVTVSS VL: QSALTQPASVSGSPGQSITISCTGTSSDVGGFNYVSWFQQHPGKAPKLMLYDVTSRPSGVSSRFSGSKSGNTASLTISGLQAEDEADYYCSSHTSRGTWVFGGGTKLTVL | 1 nM | < 0.5 nM | < 0.5 nM | < 0.5 nM | 5 nM
